A mixed list of measured activities; the numbers were collected in NIAID ChemDB.

Shared fields: tests in culture; agent: Aspergillus flavus; endpoint: zone

Zones are inhibition diameters on agar. Blank or dashed fields: not listed here. Rows are shuffled and stem from different studies.

smiles,read by,strain,dose,result
O=C(CNC(=O)c1ccncc1)NN1C(=O)/C(=C/c2cccc([N+](=O)[O-])c2)SC1c1cccc([N+](=O)[O-])c1,agar diffusion,-,50 µg/mL,22 mm
Fc1ccc(NCc2cc3ccccc3nc2Cl)cc1Cl,agar diffusion,MTCC 277,200 µg/mL,19.66 mm
Clc1ccc(-c2nn(-c3ccccc3)cc2C2CC(c3ccc(Cl)cc3Cl)=NN2c2ccccc2)cc1,-,-,1000 µg/mL,4 mm
Cc1ccc2c(c1)C(C=NNC(=O)N1c3ccccc3C=Cc3ccccc31)C(c1ccccc1)=N2,agar diffusion,MTCC-1973,750 µg/mL,3 mm
Cc1nc2ccccc2n(CC(=O)NN2C(=O)CSC2c2ccccc2O)c1=O,-,-,100 µg/mL,14 mm
O=c1[nH]c(-c2cc3ccccc3oc2=O)nc2c1C(c1ccc(Cl)cc1)c1ccc3ccccc3c1O2,agar diffusion / agar,-,100 µg/mL,11 mm
O=C(NN=CC1C(c2ccccc2)=Nc2ccc(Cl)cc21)N1c2ccccc2C=Cc2ccccc21,agar diffusion,MTCC-1973,750 µg/mL,12 mm
COc1ccc(C2SCC(=O)N2NC(=O)Cn2c(=O)c(C)nc3ccccc32)cc1OC,-,-,100 µg/mL,13 mm
O=C(CNC(=O)c1ccncc1)NN1C(=O)/C(=C/c2ccccc2Br)SC1c1ccccc1Br,agar diffusion,-,50 µg/mL,12.5 mm
COc1ccc(C2c3ccc4ccccc4c3Oc3nc(-c4cc5ccccc5oc4=O)[nH]c(=O)c32)cc1OC,agar diffusion / agar,-,100 µg/mL,15 mm
CSc1ccc(C2=NN(c3ccccc3)C(c3cn(-c4ccccc4)nc3-c3ccc(Br)cc3)C2)cc1,-,-,1000 µg/mL,4 mm
Cc1nc2ccccc2n(CC(=O)NN2C(=O)CSC2c2ccc(Cl)cc2)c1=O,-,-,50 µg/mL,13 mm
Clc1ccc(-c2nn(-c3ccccc3)cc2C2CC(c3ccc(-c4ccccc4)cc3)=NN2c2ccccc2)cc1,-,-,500 µg/mL,3 mm
Cc1ccc(O)c(O)c1O,-,-,200 µg/mL,12 mm
C=C1SCN(NC(=O)CNC(=O)c2ccncc2)C1=O,agar diffusion,-,50 µg/mL,11 mm
[Cl][Zn+].[O-]c1cc2ccccc2cc1/C=N/NC(=S)N/N=C/c1cc2ccccc2cc1O,agar diffusion / agar,-,2 mg/mL,0 mm
Clc1ccc2nc3n4c(c5ccccc5c-3c2c1)NN=C(c1ccccc1)C4,agar diffusion / visual reading,MTCC-1973,12.5 µg/mL,7 mm
Clc1ccc(NCc2cc3ccccc3nc2Cl)cc1,agar diffusion,MTCC 277,200 µg/mL,16 mm
O=C(CNC(=O)c1ccncc1)NN1C(=O)CSC1c1ccccc1Br,agar diffusion,-,100 µg/mL,17 mm
COc1ccc(C2=NNc3c4ccccc4c4c5cc(C)ccc5nc-4n3C2)cc1,agar diffusion / visual reading,MTCC-1973,12.5 µg/mL,8 mm
COc1ccc(C2SCC(=O)N2NC(=O)Cn2c(=O)c(C)nc3ccccc32)cc1,-,-,50 µg/mL,9 mm
O=c1[nH]c(-c2cc3ccccc3oc2=O)nc2c1C(c1ccccc1)c1ccc3ccccc3c1O2,agar diffusion / agar,-,150 µg/mL,14 mm
Cc1cc(=O)oc2c(C=Nc3cccc4cccc(N=Cc5c(O)ccc6c(C)cc(=O)oc56)c34)c(O)ccc12,-,MTCC 1883,100 µg/mL,9 mm
Brc1ccc(-c2nn(-c3ccccc3)cc2C2CC(c3ccc(-c4ccccc4)cc3)=NN2c2ccccc2)cc1,-,-,500 µg/mL,5 mm
C[C@H]1[C@H](O)[C@@H](C)/C=C/C=C/C=C/C=C/C=C/C=C/C=C/[C@H](O[C@@H]2O[C@H](C)[C@@H](O)[C@H](N)[C@@H]2O)C[C@@H]2O[C@](O)(C[C@@H](O)C[C@@H](O)CC[C@H](O)[C@@H](O)C[C@@H](O)CC(=O)O[C@H]1C)C[C@H](O)[C@H]2C(=O)O,agar diffusion / agar,-,100 µg/mL,25 mm
O=C(NN1C(=O)CSC1C1C(c2ccccc2)=Nc2ccccc21)N1c2ccccc2C=Cc2ccccc21,agar diffusion,MTCC-1973,500 µg/mL,4 mm
CN(C)c1ccc(C2c3ccc4ccccc4c3Oc3nc(-c4cc5ccccc5oc4=O)[nH]c(=O)c32)cc1,agar diffusion / agar,-,100 µg/mL,13 mm
O=C(CNC(=O)c1ccncc1)NN1C(=O)/C(=C/c2ccccc2[N+](=O)[O-])SC1c1ccccc1[N+](=O)[O-],agar diffusion,-,50 µg/mL,21 mm
CN(Cc1cc2ccccc2nc1Cl)c1ccc(F)cc1,agar diffusion,MTCC 277,200 µg/mL,17.15 mm
COc1ccc(C2=NNc3c4ccccc4c4c5cc(Cl)ccc5nc-4n3C2)cc1,agar diffusion / visual reading,MTCC-1973,12.5 µg/mL,8 mm
OC(Cn1cncn1)(Cn1cncn1)c1ccc(F)cc1F,-,-,50 µg/mL,100 mm
Clc1cccc(NCc2cc3ccccc3nc2Cl)c1,agar diffusion,MTCC 277,200 µg/mL,11.63 mm
Cc1nc2ccccc2n(CC(=O)NN2C(=O)CSC2c2ccc([N+](=O)[O-])cc2)c1=O,-,-,50 µg/mL,13 mm
Clc1ccc(C2=NNc3c4ccccc4c4c5cc(Cl)ccc5nc-4n3C2)cc1,agar diffusion / visual reading,MTCC-1973,12.5 µg/mL,6 mm

For reference, 3 entries again:

smiles | read by | strain | dose | result
Cc1ccc(O)c(O)c1O | - | - | 200 µg/mL | 12 mm
Clc1cccc(NCc2cc3ccccc3nc2Cl)c1 | agar diffusion | MTCC 277 | 200 µg/mL | 11.63 mm
COc1ccc(C2SCC(=O)N2NC(=O)Cn2c(=O)c(C)nc3ccccc32)cc1OC | - | - | 100 µg/mL | 13 mm